Anti-infective test results gathered from many reports (values: NIAID ChemDB through PubChem).

Common to all: toxicity to cultured cells; cells: VERO; measure: CC50

Lines come from different laboratories, so protocols vary.

{"structure": "CC(C)(C)C(=O)OCn1c(=O)c(C#Cc2ccc3c4cccc5cccc(c6cccc2c63)c54)cn(CC(=O)O)c1=O", "method": "MTT", "result": ">20 µM"}
{"structure": "COc1ccc2nc(Cl)c(/C=C/C(=O)c3cccc4ccccc34)cc2c1", "method": "MTS", "result": "14.9 µM"}
{"structure": "CCCCS(=O)(=O)Nc1ccc2[nH]c(C(=O)NC3CCCOC3)c(C)c2c1", "method": "resazurin", "result": "130 µM"}
{"structure": "Nc1nccc2c1ncn2[C@H]1C[C@H](O)[C@@H](CO)O1", "method": "trypan blue", "result": ">397 µM"}
{"structure": "Cc1cc(C)c2cc(C(=O)N[C@@H]3CC[Si](C)(C)C3)[nH]c2c1", "method": "visual reading / absorbance", "result": ">64 µg/mL"}
{"structure": "Cc1cc(C)cc(N2C(=O)CCC2(C#N)c2c(Cl)cccc2Cl)c1", "method": "absorbance", "result": ">100 µM"}
{"structure": "CC(=O)CSc1nnc(Cn2c(-c3cccs3)nc(-c3ccccc3)c2-c2ccccc2)n1C", "method": "neutral red", "result": ">50 µM"}
{"structure": "COc1ncc(C#C[Si](C)(C)C)c(OC)n1", "method": "trypan blue", "result": ">100 µM"}
{"structure": "COc1ccc2c(c1)[C@@H]1C[C@]1(C(=O)N1[C@@H]3CC[C@H]1CN(C)C3)Cn1c-2c(C2CCCCC2)c2ccc(C(=O)NS(=O)(=O)N(C)C)cc21", "method": "resazurin", "result": "29 µM"}
{"structure": "Nc1nccc2c1ncn2[C@@H]1O[C@H](CO)[C@@H](O)[C@H]1O", "method": "trypan blue", "result": "125 µM"}
{"structure": "C#Cc1cnc(C(C)=O)nc1C(C)=O", "method": "trypan blue", "result": ">100 µM"}
{"structure": "COC(=O)[C@@H](Cc1ccccc1)N1COc2ccc3c(=O)c(-c4ccc5c(c4)OCCO5)c(C)oc3c2C1", "method": "neutral red", "result": ">50 µM"}
{"structure": "Nc1nc(=O)n([C@H]2C[C@H](O)[C@@H](CO)O2)cc1C#CCOCc1ccc2c3cccc4cccc(c5cccc1c52)c43", "method": "MTT", "result": ">20 µM"}
{"structure": "COc1ccc2nc(Cl)c(/C=C/C(=O)c3ccc(Br)s3)cc2c1", "method": "MTS", "result": "13.2 µM"}
{"structure": "Nc1nccc2c1nnn2[C@@H]1O[C@H](CO)[C@@H](O)[C@H]1O", "method": "trypan blue", "result": ">398 µM"}
{"structure": "Cc1ccc(NC(C#N)c2ccccc2OCc2ccccc2)cc1", "method": "absorbance", "result": "23.7 µM"}
{"structure": "O=c1[nH]c(=O)n([C@H]2C[C@H](O)[C@@H](CO)O2)cc1C#Cc1cc2cccc3c4cccc5cccc(c(c1)c23)c54", "method": "MTT", "result": ">20 µM"}
{"structure": "CCCCS(=O)(=O)Nc1ccc2[nH]c(C(=O)NC3CCCC3)c(C)c2c1", "method": "resazurin", "result": ">130 µM"}
{"structure": "CCOc1ccc(C2(C#N)CC(=O)N2Cc2ccccc2)cc1", "method": "absorbance", "result": "6.2 µM"}
{"structure": "O=c1[nH]c(=O)n([C@@H]2O[C@H](CO)[C@@H](O)[C@@H]2O)cc1C#Cc1ccc2c3cccc4cccc(c5cccc1c52)c43", "method": "MTT", "result": ">20 µM"}
{"structure": "Cc1ccc(N2C(=O)CCC2(C#N)c2ccc(OCc3ccc(Cl)cc3Cl)cc2)cc1", "method": "absorbance", "result": "21.8 µM"}
{"structure": "CCCCS(=O)(=O)Nc1ccc2[nH]c(C(=O)NC(C)CC)c(C)c2c1", "method": "resazurin", "result": "140 µM"}
{"structure": "C=CCN(CCNC/C=C(\\C)CCC=C(C)C)C1CCCC1", "method": "MTS", "result": "51 µM"}
{"structure": "OC[C@H]1O[C@@H](n2nnc3c(Cl)nccc32)C[C@@H]1O", "method": "trypan blue", "result": ">368 µM"}
{"structure": "COc1ccc2nc(Cl)c(/C=C/C(=O)c3c4ccccc4cc4ccccc34)cc2c1", "method": "MTS", "result": "15.6 µM"}
{"structure": "CCCCS(=O)(=O)Nc1ccc2[nH]c(C(=O)NCc3ccccc3C)c(C)c2c1", "method": "resazurin", "result": ">120 µM"}
{"structure": "Nc1nc(=O)n([C@H]2C[C@H](O)[C@@H](CO)O2)cc1C#Cc1ccc2c3cccc4cccc(c5cccc1c52)c43", "method": "MTT", "result": ">20 µM"}
{"structure": "COc1nc(F)nc2c1ncn2[C@H]1C[C@H](N=[N+]=[N-])[C@@H](CO)O1", "method": "MTS", "result": ">100 µM"}
{"structure": "CCCCCS(=O)(=O)Nc1ccc2[nH]cc(C)c2c1", "method": "resazurin", "result": "180 µM"}
{"structure": "O=c1[nH]c(=O)n([C@@H]2O[C@H](CO)[C@@H](O)[C@H]2O)cc1-n1cc(-c2cc3cccc4c5cccc6cccc(c(c2)c34)c65)nn1", "method": "MTT", "result": ">20 µM"}
{"structure": "Cc1ccc2nc(Cl)c(/C=C/C(=O)c3cc4ccccc4o3)cc2c1", "method": "MTS", "result": "17.3 µM"}
{"structure": "Cc1ccc(N2C(=O)CCC2(CN)c2ccc(OCc3ccccc3)cc2)cc1", "method": "absorbance", "result": "12.3 µM"}
{"structure": "O=C(NC1CC[Si]2(CCCC2)CC1)c1cc2c(Cl)cc(Cl)cc2[nH]1", "method": "visual reading / absorbance", "result": ">20 µM"}
{"structure": "c1ccc(C(CCNCCNCC23CC4CC(CC(C4)C2)C3)c2ccccc2)cc1", "method": "MTS", "result": "13 µM"}
{"structure": "Cc1ccc(N2C(=O)CCC2(C#N)c2ccc(OC(C)C)cc2)cc1", "method": "absorbance", "result": "46.5 µM"}
{"structure": "C#CCNc1nc(N)nc2c1ncn2[C@H]1C[C@H](N=[N+]=[N-])[C@@H](CO)O1", "method": "MTS", "result": ">100 µM"}
{"structure": "OC[C@H]1O[C@@H](n2nnc3ccnc(Cl)c32)C[C@@H]1O", "method": "trypan blue", "result": ">368 µM"}
{"structure": "CCCCCC(=O)OC/C=C/c1ccc(OC(=O)CCCCC)c(OC)c1", "method": "luminescence", "result": "10.2 µg/mL"}
{"structure": "CNc1nc(Cl)nc2c1ncn2[C@H]1C[C@H](N=[N+]=[N-])[C@@H](CO)O1", "method": "MTS", "result": ">100 µM"}
{"structure": "Cc1ccc(NC(C#N)c2ccc(OCc3c(Cl)cccc3Cl)cc2)cc1", "method": "absorbance", "result": "80.9 µM"}
{"structure": "C#Cc1cnc(C(=O)c2ccccc2)nc1C(=O)c1ccccc1", "method": "trypan blue", "result": ">100 µM"}
{"structure": "Cc1nonc1NC(=O)CSc1nc(C23CC4CC(CC(C4)C2)C3)nc2ccccc12", "method": "neutral red", "result": ">50 µM"}
{"structure": "CC(C)(C)C(=O)OCn1c(=O)c(C#Cc2ccc3c4cccc5cccc(c6cccc2c63)c54)cn(CC(=O)NC[C@H](O)C(C)(C)CO)c1=O", "method": "MTT", "result": ">20 µM"}

CCn: concentration that lowers growth or viability of the cells by n%.